Compound potency records, mixed from different reports. Data source: NIAID ChemDB in PubChem.

Common to all: enzyme or target tests; agent: HIV-1; target: Reverse transcriptase

An empty or dashed field is not shown. Neighbouring rows are from separate reports. ICn: concentration for n% inhibition.

structure,strain,changes,method,read-out,value
CCCCN(C)C(=O)Oc1nsnc1-c1c(Cl)cccc1Cl,IIIB-R (RT-Y181C),RT-Y181C,nucleotide incorporation,IC50,155 µM
Cc1ccc(-n2nnnc2SCC(=O)Nc2ccc(C)c([N+](=O)[O-])c2)cc1,-,-,nucleotide incorporation / radiometric,IC50,<2 µM
Cc1cccc2c1nc(-c1cccnc1)n2Cc1c(F)cccc1F,-,-,-,IC50,>10 µM
Fc1ccc(Cl)c(C2OCc3nc4ccccc4n32)c1,IIIB,-,nucleotide incorporation / radiometric,IC50,90 µM
CC[C@@H](C(=O)[C@@H](C)[C@@H](O)[C@H](C)[C@@H]1O[C@@H]([C@@H](CC)C(=O)O)CC[C@@H]1C)[C@H]1O[C@@]2(C=C[C@@H](O)[C@@]3(CC[C@@](C)([C@H]4CC[C@](O)(CC)[C@H](C)O4)O3)O2)[C@H](C)C[C@@H]1C,-,-,RT activity,IC50,>100 µg/mL
[B-][P@](=O)(OC[C@H]1O[C@@H](n2cc(C)c(=O)[nH]c2=O)C[C@@H]1N=[N+]=[N-])OP(=O)(O)OP(=O)(O)O,-,-,-,Ki,0.00825 µM
COC1CCC(OC2CC(C3OC(O)(CO)C(C)CC3C)OC2C2(C)CCC(C3(C)CCC4(CC(O)C(C)C(C(C)C5OC(O)(CC(=O)O)C(C)C(OC6CCC(OC)C(C)O6)C5OC)O4)O3)O2)OC1C,-,-,RT activity,IC50,>100 µg/mL
Cc1csc(NC(=S)N[C@@H](C)c2ccccc2)n1,-,-,nucleotide incorporation,IC50,>100 µM
CCN(C)C(=O)Oc1nsnc1-c1c(Cl)cccc1Cl,IIIB-R (RT-Y181C),RT-Y181C,nucleotide incorporation,IC50,66.4 µM
COc1cc(C(=O)Oc2c(-c3ccc(Cl)c(Cl)c3)oc3ccccc3c2=O)ccc1O,-,-,-,IC50,>100 µM
CCc1nc2ccccn2c1C(=O)c1ccco1,-,-,RT activity,IC50,200 µM
O=C(CSc1nnnn1-c1cccc2ccccc12)Nc1ccccc1,-,-,nucleotide incorporation / radiometric,IC50,<2 µM
O=C1c2cccnc2C(=O)N1CCNC(=S)Nc1ccc(Br)cn1,-,RT-K103N,nucleotide incorporation,Ki,0.015 µM
Cc1ccccc1-c1nc2ccccc2n1Cc1c(F)cccc1F,-,-,-,IC50,<10 µM
CC(C(=O)CN1CCN(c2ccccc2Cl)CC1)N1C(=O)c2ccccc2C1=O,-,-,-,IC50,43.8 µM
O=C(Oc1c(-c2ccc(Cl)c(Cl)c2)oc2ccccc2c1=O)c1cc(O)c(O)c(O)c1,-,-,-,IC50,>100 µM
Fc1cccc(CCNC(=S)Nc2ccc(C(F)(F)F)cn2)c1,-,-,nucleotide incorporation / scintillation proximity / radiometric,IC50,0.7 µM
CC(=O)Oc1c(-c2ccc(Cl)cc2)oc2ccccc2c1=O,-,-,-,IC50,>100 µM
O=C(CSc1nnnn1-c1cccc2ccccc12)Nc1ccc(Cl)cc1[N+](=O)[O-],-,-,nucleotide incorporation / radiometric,IC50,<2 µM
Nc1ccn([C@H]2CC[C@@H](COP(=O)(O)OP(=O)(O)OP(=O)(O)O)O2)c(=O)n1,WT,-,nucleotide incorporation / radiometric,IC50,4.78 µM
Cc1csc(NC(=S)NC[C@@H](C)c2ccccc2)n1,-,-,nucleotide incorporation,IC50,>100 µM
O=c1c2cccn2c2ccccc2n1CCNC(=S)Nc1ccc(Cl)cn1,-,RT-Y188L,nucleotide incorporation,Ki,>5 µM
CC[C@@]1([C@@H]2O[C@@H]([C@H]3O[C@@](O)(CO)[C@H](C)C[C@@H]3C)C[C@@H]2C)CC[C@H]([C@]2(C)CC[C@]3(C[C@H](O)[C@@H](C)[C@@H]([C@@H](C)[C@@H](OC)[C@H](C)C(=O)O)O3)O2)O1,-,-,RT activity,IC50,>100 µg/mL
O=c1[nH]c(=O)n([C@H]2C[C@H](O)[C@@H](COP(=O)(O)OP(=O)(O)OP(=O)(O)O)O2)cc1CO,IIIB,-,nucleotide incorporation,Ki,0.8 µM
COc1cc(/C=C/C(=O)Oc2c(-c3ccc(Cl)cc3)oc3ccccc3c2=O)ccc1OC(C)=O,-,-,-,IC50,>100 µM
Oc1ccccc1-c1c2nc(c(-c3ccccc3O)c3ccc([nH]3)c(-c3ccccc3O)c3nc(c(-c4ccccc4O)c4ccc1[nH]4)C=C3)C=C2,-,-,RT activity,IC50,5 µM
O=c1cccc(O)c(O)c1O,-,-,radiometric,IC50,3.2 µM
COc1ccc(NC(=O)CSc2nnnn2-c2c(C)cc(C)cc2C)c([N+](=O)[O-])c1,-,-,nucleotide incorporation / radiometric,IC50,<2 µM
Cc1ccc(NC(=S)NC[C@@H](C)c2ccccc2)nc1,-,-,nucleotide incorporation,IC50,7.7 µM
C/C=C/c1cn([C@H]2C[C@H](O)[C@@H](COP(=O)(O)OP(=O)(O)OP(=O)(O)O)O2)c(=O)[nH]c1=O,IIIB,-,nucleotide incorporation,Ki,0.76 µM
COc1ccc2c(c1)N(C(=O)OC(C)C)[C@@H](CSC)C(=S)N2,IIIB,RT-V106A,RT activity,Ki,0.028 µM
CCc1cn([C@H]2C[C@H](O)[C@@H](COP(=O)(O)OP(=O)(O)OP(=O)(O)O)O2)c(=O)[nH]c1=O,IIIB,-,nucleotide incorporation,Ki,0.64 µM
Nc1nc2c(ncn2[C@H]2CC[C@@H](COP(=O)(O)OP(=O)(O)OP(=O)(O)O)O2)c(=O)[nH]1,IIIB,-,RT activity,IC50,0.13 µM
Nc1nc2c(ncn2[C@H]2CC[C@@H](COP(=O)(O)OP(=O)(O)OP(=O)(O)O)O2)c(=O)[nH]1,-,RT-V106A P225H,nucleotide incorporation / radiometric,IC50,0.097 µM
O=C(O)Cn1cnc2c(Oc3ccccc3[N+](=O)[O-])nc(NC(=O)OCc3ccccc3)nc21,NNRTI-resistant,Y181I,nucleotide incorporation / radiometric,Ki,15 µM
O=c1ccccc(-c2cncnc2)c1O,-,-,radiometric,IC50,>1000 µM
Cc1csc(NC(=S)N[C@H](C)c2ccccc2)n1,-,-,nucleotide incorporation,IC50,0.8 µM
Cc1cn([C@@H]2O[C@H](CO[Si](C)(C)C(C)(C)C)C3(OS(=O)(=O)C=C3N)[C@H]2O[Si](C)(C)C(C)(C)C)c(=O)n(C)c1=O,IIIB,RT-V106A,RT activity,IC50,>250 µM
Cc1cn([C@H]2C=C[C@@H](COP(=O)(O)OP(=O)(O)OP(=O)(O)O)O2)c(=O)[nH]c1=O,-,RT-V106A,nucleotide incorporation / radiometric,IC50,0.06 µM
Cc1cn([C@H]2C[C@H](N)[C@@H](COP(=O)(O)OP(=O)(O)OP(=O)(O)O)O2)c(=O)[nH]c1=O,-,-,fluorescence,Ki,0.042 µM
CC(C)=CCN1C(C)C(=O)Nc2ccc(Cl)cc2S1(=O)=O,IIIB,-,RT activity,IC50,3.3 µM
CC(C)=CCN1Cc2cccc3[nH]c(=S)n(c23)C[C@@H]1C,-,-,nucleotide incorporation,IC50,4.9 µM
O=C(O[C@@H]1Cc2c(O)cc(O)cc2O[C@@H]1c1ccc(O)c(O)c1)c1cc(O)c(O)c(O)c1,LAV,-,-,IC50,0.02 µg/mL
Cc1cn([C@H]2C[C@H](N=[N+]=[N-])[C@@H](CO[P@@](=O)([Se-])OP(=O)(O)C(F)(F)P(=O)(O)O)O2)c(=O)[nH]c1=O,-,-,fluorescence,Ki,1.37 µM
Cc1c(Sc2ccccc2)n(COCCO)c(=O)[nH]c1=O,-,-,nucleotide incorporation,IC50,0.3 µM
O=P(O)(O)OP(=O)(O)O,-,RT-H208Y,-,Ki,2700 µM
Nc1ncnc2c1ncn2[C@H]1CC[C@@H](COP(=O)(O)OP(=O)(O)OP(=O)(O)O)O1,-,RT-L74V,ELISA,IC50,16.9 µM
Cc1cccc2sc(NC(=S)N[C@H](C)c3ccccc3)nc12,-,-,nucleotide incorporation,IC50,8.7 µM
CCc1cc(CCc2nc3ccccc3o2)c(=S)[nH]c1C,-,RT-K103N Y181C,nucleotide incorporation,IC50,11 µM
CCOCn1c(Cc2ccccc2)c(C(C)C)c(=O)[nH]c1=O,IIIB,RT-P225H,RT activity,Ki,0.73 µM
Fc1cccc(F)c1C1SCc2nc3ccccc3n21,IIIB,-,nucleotide incorporation / radiometric,IC50,15 µM
O=S(=O)(c1ccccc1)n1c(-c2c(F)cccc2F)nc2ccccc21,-,-,-,IC50,~10 µM
Cc1cc(C)c(-n2nnnc2S(=O)CC(=O)Nc2ccccc2[N+](=O)[O-])c(C)c1,-,-,nucleotide incorporation / radiometric,IC50,<2 µM
Oc1cccc(-c2c3nc(c(-c4cccc(O)c4)c4ccc([nH]4)c(-c4cccc(O)c4)c4nc(c(-c5cccc(O)c5)c5ccc2[nH]5)C=C4)C=C3)c1,-,-,RT activity,IC50,5 µM
O=c1c(O)c(-c2ccc(Cl)cc2)oc2ccccc12,-,-,-,IC50,>100 µM
Cc1cccc2c1nc(CO)n2Cc1c(F)cccc1F,-,-,-,IC50,>10 µM
C[C@H](CNC(=S)Nc1nccs1)c1ccccc1,-,-,nucleotide incorporation,IC50,>100 µM
CCc1cc(CCc2nc3c(Cl)ccc(Cl)c3o2)c(=O)[nH]c1C,-,RT-Y181C,nucleotide incorporation,IC50,0.21 µM
Fc1cccc(F)c1Cn1c(-c2c(F)cccc2F)nc2ccccc21,-,-,-,IC50,~10 µM
COc1cc(C(=O)Oc2c(-c3ccc(Cl)c(Cl)c3)oc3ccccc3c2=O)cc(OC)c1OC(C)=O,-,-,-,IC50,>100 µM
Cc1cc(C)c(-n2nnnc2SCC(=O)Nc2ccc(C)cc2Br)c(C)c1,-,-,nucleotide incorporation / radiometric,IC50,<2 µM
C=C1OC(C(=O)O)C(/C(=C/C(=O)O)C(=O)OC2C3COC(=O)c4cc(O)c(O)c(O)c4-c4c(cc(O)c(O)c4O)C(=O)OC2C(O)C(OC(=O)c2cc(O)c(O)c(O)c2)O3)c2c1cc(O)c(O)c2O,-,-,-,IC50,0.05 µM
O=C(CSc1sc(Cl)nc1-c1ccc(Br)cc1Br)Nc1cccnc1Cl,-,-,-,IC50,>361 µM
C[C@H](CNC(=S)Nc1ccc(Cl)cn1)c1ccccc1,-,-,nucleotide incorporation,IC50,1.4 µM
O=c1c2cccn2c2cc(Cl)c(Cl)cc2n1CCNC(=S)Nc1ccc(Br)cn1,-,-,nucleotide incorporation,Ki,0.02 µM
CC(C)=CCN1C(=O)Nc2ccc(Cl)cc2S1(=O)=O,IIIB,RT-L100I,RT activity,IC50,>30 µM
CCCCCCN(C)C(=O)Oc1nsnc1-c1c(Cl)cccc1Cl,IIIB,-,nucleotide incorporation,IC50,9.5 µM
O=c1c2cccn2ccn1CCNC(=S)Nc1ccc(Br)cn1,-,RT-K103N,nucleotide incorporation,Ki,0.017 µM
Cc1ccc2c(nc(-c3c(F)cccc3F)n2Cc2c(F)cccc2F)c1C,-,-,-,IC50,>10 µM
CC(C)=CCN1C(=O)c2cccn2-c2ccc(Cl)cc2S1(=O)=O,IIIB,RT-L100I,RT activity,IC50,>30 µM
Cc1cn([C@H]2C[C@H](N)[C@@H](COP([O-])(=S)OP(=O)(O)C(F)(F)P(=O)(O)O)O2)c(=O)[nH]c1=O,-,-,fluorescence,IC50,>0.5 µM
COc1ccc2c(c1)N(C(=O)OC(C)C)[C@@H](CSC)C(=S)N2,-,RT-K103R V106A Y181I G190E,scintillation proximity / radiometric,IC50,>29 µM
Cc1cc(C)c(-n2nnnc2SCC(=O)Nc2ccccc2[N+](=O)[O-])c(C)c1,-,-,nucleotide incorporation / radiometric,IC50,<2 µM
CCCCNC(=O)Oc1nsnc1-c1c(Cl)cccc1Cl,IIIB-R (RT-Y181C),RT-Y181C,nucleotide incorporation,IC50,>200 µM
Nc1ccn([C@H]2CC[C@@H](COP(=O)(O)OP(=O)(O)OP(=O)(O)O)O2)c(=O)n1,-,RT-L74V T215Y K219Q,ELISA,IC50,16.2 µM